Measured values taken from PubChem BioAssay AID1035470 (Broad Institute, 2014).
The entries are a selection whose mix differs from that of the whole data set. Results with a measured potency or affinity are listed apart. Records with an inconclusive call do not appear. The source made the active and inactive calls.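 How the source made its calls: active means compound lowering the normal-ribosome reporter at least twice as much as the humanized-ribosome reporter, growth loss under a set limit; inconclusive means no clear call, values can overlap the other calls; inactive means the rest.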

test: E. coli strain growth, wild-type against G2058 humanized RFP mutant – G2058 mutant RFP vs wild-type GFP, cherry-pick, two tests, dose response (AID 1035470); conditions: E. coli WT-GFP vs G2058-humanized RFP, fluorescence, 24 h; at 50 µM (top of the series)

Q: Which activity change, negative = inhibition does the source give for `O=[N+]([O-])c1cc([N+](=O)[O-])c(Nc2nnnn2CCO)c([N+](=O)[O-])c1` here?
A: inactive: -2.05
